A mixed list of measured activities; the numbers were collected in NIAID ChemDB.

All rows: whole-cell or culture tests; agent: Mycobacterium avium; measure: MIC

Neighbouring rows are from separate reports.

smiles	strain or isolate	value
CCCCCCCOc1ccccc1NC(=O)OCC[NH+]1CCCC1	MY330/88	32 µM
Cc1ccc2oc(=O)n(-c3cccc(Cl)c3)c(=O)c2c1	CNCTC MY330/88	32 µM
Fc1ccc(CSc2ncn[nH]2)cc1F	MY330/88	1000 µM
O=c1oc2ccccc2c(=O)n1-c1cccc([N+](=O)[O-])c1	CNCTC MY330/88	16 µM
CCCCOc1ccccc1NC(=O)OCC[NH+]1CCCC1	MY330/88	250 µM
Fc1ccc(CSc2ncn[nH]2)cc1	MY330/88	250 µM
CCCOc1ccc(NC(=O)OCCN(C)C)cc1	MY330/88	250 µM
CC(C)N=c1cc2n(-c3ccc(Cl)cc3)c3ccccc3nc-2cc1Nc1ccc(Cl)cc1	6193	2 µg/mL
O=c1oc2ccc(F)cc2c(=O)n1-c1ccc(Br)cc1	CNCTC MY330/88	16 µM
Clc1ccc(CSc2ncn[nH]2)cc1	MY330/88	250 µM
CN(C)c1ccc(-n2c(=O)oc3cc(Cl)ccc3c2=O)cc1	CNCTC MY330/88	31 µM
NC(=S)c1cccc(CSc2ncn[nH]2)c1	MY330/88	500 µM
CCCCCCCCOc1cccc(NC(=O)OCCN(C)C)c1	MY330/88	16 µM
FC(F)(F)c1cccc(CSc2ncn[nH]2)c1	MY330/88	250 µM
CCCCCOc1ccc(NC(=O)OCCN2CCOCC2)cc1	MY330/88	32 µM

For reference, 2 entries again:

smiles	strain or isolate	value
CC(C)N=c1cc2n(-c3ccc(Cl)cc3)c3ccccc3nc-2cc1Nc1ccc(Cl)cc1	6193	2 µg/mL
FC(F)(F)c1cccc(CSc2ncn[nH]2)c1	MY330/88	250 µM